# PubChem BioAssay AID1259414 | Drosophila RNAi Screening Center, 2018
# Aim: 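Fly genes that alter Wolbachia amount inside host cells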 (primary screen)
# System: Drosophila JW18 cells infected with Wolbachia
# Reagent: long dsRNA against Drosophila genes, 0.25 µg dsRNA per well of a 384-well plate
# Duration: 5 days
# Conditions: cells persistently infected with Wolbachia before knock-down; no added drug
# Measured: 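Automated imaging of bacterial rRNA staining divided by host cell count, reported as plate-normalised robust z-score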
# Direction: Wolbachia per cell robust z: higher = more Wolbachia per host cell than the plate typical
# Rule for the call: 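Active if absolute robust z reaches 1.5 in two or more of three replicates, leaving out multi- or no-target dsRNAs, genes unexpressed in JW18 and A1 wells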
# The screen tested about 24,000 reagents; shown is a random part of those that have a named target and a result. Of all reagents, about 1,210 (5%) got an active call. 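Inactive calls also include excluded dsRNAs with several or no targets, genes unexpressed in JW18, and well A1, regardless of score.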 Reagents against one gene are numbered here. Reagent sequences are not shown.
Target gene,dsRNA no.,"Wolbachia per cell robust z, rep 1","Wolbachia per cell robust z, rep 2","Wolbachia per cell robust z, rep 3",Call
M6,1,0.551,0.392,-1.18,inactive
TotF,1,-0.346,0.0502,-0.0316,inactive
TotF,2,-0.537,0.109,0.713,inactive
CG17350,1,-1.39,-0.102,0.362,inactive
mRpL39,1,0.843,1.44,0.826,inactive
CG32599,1,0.974,-0.708,-0.523,inactive
CG32599,2,0.71,0.508,0.182,inactive
Ca-Ma2d,1,0.878,0.271,0.981,inactive
icln,1,0.867,1.03,1.05,inactive
icln,2,-0.183,0.877,0.957,inactive
Edem2,1,0.478,0.525,1.08,inactive
Edem2,2,0.454,0.066,-1.28,inactive
CG11426,1,-0.185,0.477,0.445,inactive
CG11426,2,-0.26,1.15,1.69,inactive
CG10417,1,-2.11,0.121,0.387,inactive
CG10417,2,-1.34,-1.65,-5.81,active
ZnT35C,1,-0.629,0.554,0.677,inactive
CG13461,1,1.24,1.01,1.17,inactive
CG13461,2,0.13,-0.195,-0.811,inactive
CG5790,1,-0.0926,-4.69,0.842,inactive
CG5790,2,-0.11,-0.702,-0.304,inactive
CG1791,1,0.608,-8.1,1.61,inactive
CG1791,2,-0.348,0.354,1.5,inactive
CG43155,1,0.248,0.0254,-0.838,inactive
CG43155,2,-1.5,0.557,0.545,inactive
CG13245,1,-0.488,0.0861,0.739,inactive
ND-B14.5A,1,1.06,-0.0733,0.0719,inactive
PolZ2,1,-7.89,-0.868,-1.14,inactive
CG16978,1,-0.131,-4.66,0.439,inactive
CG6984,1,-0.848,-1.03,0.665,inactive
CG30222,1,0.151,0.763,-0.73,inactive
CG30222,2,-0.656,-0.224,-0.651,inactive
Obp69a,1,-4.12,-1.69,-3.37,active
Obp69a,2,0.0283,-2.32,-1.63,active
Arp2,1,1.11,-0.6,1.24,inactive
Taf8,1,-0.0321,0.207,0.215,inactive
CG13795,1,-0.133,0.558,0.543,inactive
CG4287,1,0.463,0.282,0.149,inactive
CG4287,2,-1.23,-9.43,-0.348,inactive
CG12241,1,0.933,0.476,-0.795,inactive
CG12241,2,-1.27,0.663,-0.251,inactive
Gyc32E,1,0.412,0.918,0.606,inactive
Gyc32E,2,0.127,0.515,0.431,inactive
hydra,1,-1.08,-0.675,-2.44,inactive
MP1,1,0.0987,-4.72,0.209,inactive
MP1,2,-0.0567,-1.38,-4.42,inactive
mRpL13,1,-0.099,0.629,-0.17,inactive
mRpL13,2,1.06,-0.634,0.482,inactive
TM4SF,1,0.554,-0.131,-5.27,inactive
CG9330,1,-0.207,0.00875,-0.751,inactive
CG9330,2,0.975,0.167,-0.373,inactive
Trap1,1,-3.3,-0.386,-1.7,active
CG3732,1,-1.58,0.356,-0.749,inactive
CG3732,2,-0.201,1.45,1.79,inactive
Atf3,1,0.248,-0.0199,-0.777,inactive
CG1275,1,0.219,0.195,0.985,inactive
CG5065,1,0.811,0.0721,0.85,inactive
CG15395,1,1.51,0.893,1.56,inactive
Rbf2,1,-0.75,1.44,-0.194,inactive
CG3777,1,-0.583,-1.6,-1.14,inactive
CG3777,2,0.933,-0.128,0.236,inactive
Dis3,1,1.25,2.75,3.09,active
CG11125,1,-0.287,0.089,0.264,inactive
RabGGTa,1,0.261,0.523,-1.08,inactive
CG7766,1,1.06,0.507,1.31,inactive
CG7766,2,-1.98,0.563,-1.19,inactive
Roc1a,1,-1.94,1.85,5.35,active
CG3557,1,-0.297,0.739,-0.674,inactive

11 entries from above in another layout:
TotF #2
- Wolbachia per cell robust z, rep 1: -0.537
- Wolbachia per cell robust z, rep 2: 0.109
- Wolbachia per cell robust z, rep 3: 0.713
- Call: inactive

CG17350
- Wolbachia per cell robust z, rep 1: -1.39
- Wolbachia per cell robust z, rep 2: -0.102
- Wolbachia per cell robust z, rep 3: 0.362
- Call: inactive

mRpL39
- Wolbachia per cell robust z, rep 1: 0.843
- Wolbachia per cell robust z, rep 2: 1.44
- Wolbachia per cell robust z, rep 3: 0.826
- Call: inactive

CG32599 #1
- Wolbachia per cell robust z, rep 1: 0.974
- Wolbachia per cell robust z, rep 2: -0.708
- Wolbachia per cell robust z, rep 3: -0.523
- Call: inactive

CG32599 #2
- Wolbachia per cell robust z, rep 1: 0.71
- Wolbachia per cell robust z, rep 2: 0.508
- Wolbachia per cell robust z, rep 3: 0.182
- Call: inactive

Ca-Ma2d
- Wolbachia per cell robust z, rep 1: 0.878
- Wolbachia per cell robust z, rep 2: 0.271
- Wolbachia per cell robust z, rep 3: 0.981
- Call: inactive

icln #1
- Wolbachia per cell robust z, rep 1: 0.867
- Wolbachia per cell robust z, rep 2: 1.03
- Wolbachia per cell robust z, rep 3: 1.05
- Call: inactive

icln #2
- Wolbachia per cell robust z, rep 1: -0.183
- Wolbachia per cell robust z, rep 2: 0.877
- Wolbachia per cell robust z, rep 3: 0.957
- Call: inactive

Edem2 #1
- Wolbachia per cell robust z, rep 1: 0.478
- Wolbachia per cell robust z, rep 2: 0.525
- Wolbachia per cell robust z, rep 3: 1.08
- Call: inactive

Edem2 #2
- Wolbachia per cell robust z, rep 1: 0.454
- Wolbachia per cell robust z, rep 2: 0.066
- Wolbachia per cell robust z, rep 3: -1.28
- Call: inactive

CG11426 #1
- Wolbachia per cell robust z, rep 1: -0.185
- Wolbachia per cell robust z, rep 2: 0.477
- Wolbachia per cell robust z, rep 3: 0.445
- Call: inactive
